Experimental findings from patent US8053553B2 (Socpra Sciences Sante Et Humaines, priority 2007, dated 2011) are described below.

This data set can be described thus: Fmoc solid-phase peptide synthesis; Rink resin; Diisopropylcarbodiimide. As to conditions: whole synthesis, UV 217 nm, scale 1 g, 0.45 mmol/g, lyophilized from 0.1 M HCl.

Plain letter strings leave the end groups untold.

In the case of TPRARRRKKRT, the “final HPLC purity” value is given as “exceed 95%”.
